B1: P14-F8-38 (Fc fusion)
chain: EVQLVESGGGLVQPGGSLRLSCAASGFRFGSYTMSWVRQAPGKAPEWVSDINTRGETTRYADSVKGRFTISRDNAKNTLYLQMNSLRAEDTAVYYCAVAASGDTFFGRSDPDYWGQGTLVTVSS[human IgG1 Fc with changes not spelt out]
B2: P14-F8 (Fc fusion)
chain: EVQLVESGGGLVQPGGSLRLSCAASGFRFGSYYMSWVRQAPGKAPEWVSDINTRGETTRYSDSVKGRFTIARDNANNTVFLFMNRLKPEDTAVYYCAVAASGDTFEGRSDPDYWGQGTLVTVSS[human IgG1 Fc with changes not spelt out]
notes: also called P14-F8-Parental; 候选驼源纳米抗体P14-F8

Columns and labels:
[1] = biological target: T1, S蛋白RBD-mFc (Sinobio, 40592-V05H) (2019-nCoV (SARS-CoV-2)); experiment: FACS blocking of RBD binding to ACE2-HEK293 cells
T1 construct: domain: RBD; also called Spike-RBD-mFc; Spike RBD-mFc

[2] = biological target: T1, S蛋白RBD-mFc (Sinobio, 40592-V05H); experiment: ELISA as in Example 5.1, Spike-RBD-mFc coated
[3] = biological target: T1, S蛋白RBD-mFc (Sinobio, 40592-V05H); experiment: FACS blocking as in Example 6.2: RBD-mFc on ACE2-HEK293 cells

Binder | IC50 [1] | EC50 [2] | IC50 [3]
B1 | 272 pM | – | –
B2 | – | ~90 pM | ~470 pM

— CN112625136A (SANYOU BIOPHARMACEUTICALS SHANGHAI CO LTD; SHANGHAI ZJ BIO …, dated 2021)
